Compound potency records, mixed from different reports. Data source: NIAID ChemDB in PubChem.

All rows: growth or infection tests; species: Rhinovirus

Two numbers with a dash give a range or band.

structure	read by	cell line	dose	strain or isolate	read-out	value
Cc1cc(CCCCCOc2cc(Cl)c(-c3nnc(C)o3)c(Cl)c2)on1				serotype 2 1A 1B 6 14 21 22 15 25 30 50 67 89 86 41	MIC80	0.46 µg/mL
CSc1ncnc2c1ncn2[C@@H]1OC2COP(=O)(O)OC2[C@H]1O				TYPE 8	MIC	3.2 µg/mL
CN(C)c1ccc(Cn2cnc3c(N(C)C)nc(C(F)(F)F)nc32)cc1	plaque count	M-HELA	8 µM	Serotype 31	inhibition	41%
Fc1cccc(Cn2cnc3c(Nc4cccc(F)c4)nc(C(F)(F)F)nc32)c1	plaque count	M-HELA		Serotype 43	EC50	6.3 µM
Cc1cc(CCCCCOc2cc(Cl)c(-c3nnco3)c(Cl)c2)on1				Serotype 6	MIC80	7.06 µg/mL
Nc1c(S(=O)(=O)[O-])cc2cc(S(=O)(=O)[O-])ccc2c1O	cytopathic effect	Human embryonic lung cells	5 µg/mL		inhibition	55%
CN(C)c1nc(C(F)(F)F)nc2c1ncn2Cc1ccc(Br)cc1	plaque count	M-HELA	8 µM	Serotype 13	inhibition	40%
Cc1cc(CCCOc2c(C)cc(-c3noc(C(F)(F)F)n3)cc2C)on1	cytopathic effect / visual reading	OHIO HELA-I		Isolate 38	EC50	0.05 µg/mL
Cc1ccc(Cn2cnc3c(N(C)c4ccccc4)nc(C(F)(F)F)nc32)cc1	plaque count	M-HELA		Serotype 5	EC50	>8 µM
CN(C)c1nc(C(F)(F)F)nc2c1ncn2Cc1ccc(-c2ccccc2)cc1	plaque count	M-HELA	8 µM	TYPE 1B	inhibition	36%
CCSc1ncnc2c1ncn2[C@@H]1OC2COP(=O)(O)OC2[C@H]1O				TYPE 13	MIC	1–32 µg/mL
O=C(Nc1ccc2cc(S(=O)(=O)[O-])cc(S(=O)(=O)[O-])c2c1)c1ccccc1	cytopathic effect	Human amnion AV3 cells	50 µg/mL		inhibition	8%
CCOC(=O)c1ccc(OCCC2CCN(c3ccc(C)nn3)CC2)cc1	neutral red	KB		6258-CV44 (ICAM-1 receptor group 64)	EC50	0.813 µM
CN(C)c1nc(C(F)(F)F)nc2c1ncn2Cc1ccccc1Cl	plaque count	M-HELA	8 µM	Serotype 21	inhibition	38%
Cc1cc(CCCCCOc2c(Cl)cc(C3=NCCO3)cc2Cl)on1	plaque count	HeLa		TYPE 44	EC50	0.055 µg/mL
O=C(Nc1ccc2c(O)c(N=Nc3ccc(N=Nc4ccc(S(=O)(=O)O)cc4)cc3)c(S(=O)(=O)O)cc2c1)c1ccccc1	cytopathic effect	Human amnion AV3 cells	5 µg/mL		inhibition	0%
CN(C)c1nc(C(F)(F)F)nc2c1ncn2Cc1ccc(Cl)cc1Cl	plaque count	M-HELA		Serotype 21	EC50	>8 µM
O=C(Nc1ccc(S(=O)(=O)[O-])c2cccc(S(=O)(=O)[O-])c12)c1ccccc1	cytopathic effect	Human embryonic lung cells	10 µg/mL		inhibition	63%
Cc1ccccc1Cn1cnc2c(N(C)C)nc(C(F)(F)F)nc21	plaque count	M-HELA	8 µM	Serotype 5	inhibition	40%

2 of the rows above, restated:

{"structure": "Cc1cc(CCCOc2c(C)cc(-c3noc(C(F)(F)F)n3)cc2C)on1", "read by": "cytopathic effect / visual reading", "cell line": "OHIO HELA-I", "strain or isolate": "Isolate 38", "read-out": "EC50", "value": "0.05 µg/mL"}
{"structure": "Nc1c(S(=O)(=O)[O-])cc2cc(S(=O)(=O)[O-])ccc2c1O", "read by": "cytopathic effect", "cell line": "Human embryonic lung cells", "dose": "5 µg/mL", "read-out": "inhibition", "value": "55%"}

Blank or dashed fields: not listed here. Percent inhibition refers to the dose given; in toxicity tests it is the harm to the cells. MIC50, MIC90 and the like: level of inhibition, or share of isolates inhibited. Conditions beyond the fields shown may differ between rows. ECn: concentration that inhibits the pathogen or its effect by n%.